These are literature values, as cited in patent US20060229204A1, “Control of sulfhydryl compound odor in organothiophosphate formulations” (published 2006).

The conditions of the data set: pH 5-9, 25° C.

For the molecule `CC(C)OP(=S)(OC(C)C)SCCNS(=O)(=O)c1ccccc1`, the DT50 was > 200 days.
